Two compounds from paper PMC12434534, “Synthesis and Antiviral Evaluation of Unexplored Dioxolane-Derived 7‑Deazapurine Nucleoside Analogues against Epstein–Barr Virus (EBV)” (ACS Medicinal Chemistry Letters, 2025) can be followed below.

Structures are written as SMILES. A value given as a limit tells only on which side of the number the result lay.

In this data set the test system is HIV-FL. The conditions noted are these: selectivity index = CC50/EC50, TZM-GFP cells. The procedure:
First, TZM-GFP cells were seeded in the 96-well plate (10 000/well), and after 24 h, selected compounds and HIV FL virus (MOI = 0.1) were added to the plate. […] At 48 h post-infection (hpi), GFP production due to infection was measured by Cytation 5, and a 50% reduction in efficacy (EC50) and cell viability (CC50) were determined using GraphPad software (San Diego, CA, USA, www.graphpad.com). […]
(10,000/well), and after 24 h, selected compounds and HIV FL (MOI=0.1) virus were added to the […]
plate. […] At 48 h post-infection (hpi), the GFP cells were measured by Cytation 5, and a 50% reduction in efficacy (EC50) and cell viability (CC50) was determined using GraphPad software (San Diego, California, www.graphpad.com). […]
Evaluation of Cytotoxicity: The cytotoxic effects of test compounds for P3HR1 and TZN-GFP cells were determined by CellTiter 96 Non-Radioactive Cell Proliferation assay system (Promega) using either 2,3-Bis-(2-Methoxy-4-nitro-5-sulfophenyl)-2H-tetrazolium-5-carboxanilide, disodium salt (XTT) or 3- (4,5-dimethylthiazol-2-yl)-2,5-diphenyltetrazolium bromide (MTT) methods under the same conditions as the antiviral assay but in the absence virus. Cells were seeded at a density of 1 x 105 (P3HR-1) or 2 x 104 (TZM-GFP) cells per well in 96-well plates and […]

In the case of `Nc1ncnc2c1ccn2[C@H]1CO[C@@H](CO)O1` [Compound 12], the “SI (CC50/EC50), HIV-FL” value was over 17. Next, `Nc1ncnc2c1c(F)cn2[C@H]1CO[C@@H](CO)O1` [Compound 13]: over 25.2.
